Anti-infective test results gathered from many reports (values: NIAID ChemDB through PubChem).

Shared fields: whole-cell or culture tests; agent: Aspergillus fumigatus; read-out: MIC80

Rows are shuffled and stem from different studies. A number after MIC or MFC names an inhibition level or a share of isolates. Blank or dashed fields: not listed here.

structure | strain or isolate | result
CC(C)(O)C1Cc2ccc3c(=O)c4c(O)cccc4oc3c2O1 |  | 16 µg/mL
C[C@@H](c1ncncc1F)[C@](O)(Cn1cncn1)c1ccc(F)cc1F |  | 2.86 µM
COc1c2c(c3oc4c(O)cccc4c(=O)c3c1O)C=CC(C)(C)O2 | CBS 113.26 | 8 µg/mL
OC(CN1CCCN(CCCOc2ccccc2)C1)(Cn1cncn1)c1ccc(F)cc1F |  | >140 µM
COc1c(O)c(CC=C(C)C)c2oc3c(O)cccc3c(=O)c2c1O |  | >250 µg/mL
OC(CN=C1CCN(CCCOc2ccccc2)CC1)(Cn1cncn1)c1ccc(F)cc1F |  | >136 µM
CCCC(CC(=O)O)c1c2c(c(O)c3c1O[C@@H](C)[C@H](C)C3=O)C=CC(C)(C)O2 | CBS 113.26 | >250 µg/mL
COc1c(O)ccc2oc3ccccc3c(=O)c12 | CBS 113.26 | 31 µg/mL
CCCC(CC(=O)O)c1c(O)c2c(c3c1OC(C)(C)C=C3)O[C@@H](C)[C@H](C)C2=O | CBS 113.26 | 4 µg/mL
O=c1c2cc(O)ccc2oc2cc(O)cc(O)c12 |  | 250 µg/mL
OC(CN1CCCN(CCCCOc2ccccc2)C1)(Cn1cncn1)c1ccc(F)cc1F |  | >136 µM
CC1(C)Oc2c(ccc3c(=O)c4ccccc4oc23)C[C@@]1(C)O |  | >250 µg/mL
CC1=C[C@H]2c3c(ccc4oc5cc(O)cc(O)c5c(=O)c34)OC(C)(C)[C@H]2CC1 | CBS 113.26 | 32 µg/mL
COc1c(O)ccc2oc3cccc(O)c3c(=O)c12 |  | 31 µg/mL
COc1c(O)cc2oc3c(O)cccc3c(=O)c2c1O | CBS 113.26 | 31 µg/mL